Sequences of proteins named here, by UniProt entry; tags and fusion partners are left off. Residues count along the entry.
UniProt P09598, 39-283 limits assumed: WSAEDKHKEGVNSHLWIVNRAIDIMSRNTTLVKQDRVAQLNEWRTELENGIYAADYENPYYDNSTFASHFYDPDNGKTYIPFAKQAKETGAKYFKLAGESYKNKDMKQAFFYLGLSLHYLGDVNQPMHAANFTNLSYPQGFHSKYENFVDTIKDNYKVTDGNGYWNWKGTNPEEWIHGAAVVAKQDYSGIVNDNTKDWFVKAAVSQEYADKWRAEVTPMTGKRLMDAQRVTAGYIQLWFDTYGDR

In patent US20050026235A1 (priority 2003, published 2005):

Biological target: PLC from Bacillus cereus (Bacillus cereus, UniProt P09598)
Details: DOPC/cholesterol/compound 60 (60/20/20) 100 nm LUV, PLC 0.125 nM, Tris saline

1,2-dioleoyl-sn-glycero-3-phosphoethanolamine-N-(Oregon Green® 488, 5-isomer) [compound 60]
Vmax: 0.21±0.05 RFU/s
Km (read-out: observed Km): 8.6 ± 4.5 nM
